Record: PubChem BioAssay AID624099 (ICCB-Longwood, 2012)
Aim: 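Human genes that papillomavirus E2 requires to repress the HPV18 LCR promoter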 (primary screen). System: human C33A cervical carcinoma cells (HPV-negative) stably expressing BPV1 E2 and an HPV18 LCR luciferase reporter. Knock-down reagent: siRNA pool against human genes, 40 nM. Time to read-out: 72 h. Read-out: 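HPV18 LCR reporter light per well, converted to plate-wise z-scores that exclude control wells, and averaged over triplicate plates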. Direction: mean z-score and z-score: higher = stronger reporter signal, weaker E2 silencing. Rule for the call: 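Hit if mean z-score reaches 2 and two or more of three replicate z-scores also reach 2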.
This is one part, drawn at random, of about 21,000 reagents tested. Over the whole deposit, 497 (2.4%) are marked active. 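Higher z means weaker E2 silencing; only reporter increases were scored, and knock-downs that hurt cell survival may mask genuine repressor factors.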 A number with no mark means an inactive call. Reagents against one gene are numbered here.

Target gene | reagent | mean z-score | z-score, replicate A | z-score, replicate B | z-score, replicate C
STX1B | 1 | 0.26 | 0.48 | 0.19 | 0.13
ZNF621 | 1 | 1.86 | 2.07 | 1.92 | 1.6
LOC340246 (retired record) | 1 | 0.47 | 0.64 | 0.36 | 0.4
PSMC6 | 1 | -0.53 | -0.49 | -0.47 | -0.62
PITPNM3 | 1 | 1.9 | 1.84 | 1.86 | 2
NRXN2 | 1 | -0.12 | -0.44 | 0.08 | 0
KASH5 | 1 | 0.27 | 0.05 | 0.23 | 0.52
GALR3 | 1 | -1.87 | -2.03 | -1.87 | -1.7
OR56A1 | 1 | 0.29 | -0.01 | 0.53 | 0.35
SMG7 | 1 | -1.83 | -1.81 | -1.79 | -1.88
ZDHHC21 | 1 | -0.08 | 0.18 | -0.21 | -0.21
APOLD1 | 1 | 1.91 | 2.06 | 2.05 | 1.61
GXYLT1 | 1 | 0.42 | 0.35 | 0.45 | 0.46
SHD | 1 | 0.53 | 0.48 | 0.49 | 0.62
MAGED1 | 1 | -1 | -0.81 | -1.14 | -1.04
CIRBP | 1 | 0.16 | -0.03 | 0.41 | 0.11
PPIAL4A | 1 | 0.27 | 0.07 | 0.39 | 0.36
LOC642355 | 1 | 0.76 | 0.79 | 0.79 | 0.71
GALNT15 | 1 | -1.91 | -1.68 | -1.93 | -2.13
CHMP7 | 1 | 0.34 | 0.17 | 0.14 | 0.72
TP53INP1 | 1 | 0.05 | -0.04 | -0.03 | 0.23
SMARCAD1 | 1 | -1.19 | -1.22 | -1.19 | -1.17
B9D1 | 1 | -0.25 | -0.45 | -0.27 | -0.01
KCNK18 | 1 | 0.02 | 0.02 | 0.18 | -0.15
FCHSD2 | 1 | 0.08 | -0.05 | 0.2 | 0.09
GTSF1L | 1 | 0.18 | 0.16 | 0.61 | -0.23
WASH2P | 1 | -0.5 | -0.37 | -0.61 | -0.53
DAP | 1 | -0.06 | -0.13 | 0.03 | -0.1
ZIC2 | 1 | 0.19 | 0.32 | 0.28 | -0.02
TECPR1 | 1 | -0.67 | -0.81 | -0.44 | -0.74
SPATA4 | 1 | 0.23 | -0.07 | 0.32 | 0.44
SLAMF8 | 1 | -0.11 | -0.02 | -0.31 | 0
LDHA | 1 | 0.28 | 0.07 | 0.54 | 0.22
MEI1 | 1 | -1.1 | -1.3 | -0.92 | -1.07
MEI1 | 2 | 0.6 | 0.67 | 0.55 | 0.58
TNFRSF10D | 1 | -0.52 | -0.49 | -0.51 | -0.55
GGTLC1 | 1 | 1.74 | 1.24 | 1.83 | 2.16
NUP153 | 1 | -0.2 | -0.27 | -0.21 | -0.13
ARK2N | 1 | 0.59 | 0.23 | 0.73 | 0.82
CTSO | 1 | -0.83 | -1.21 | -0.38 | -0.89
MSGN1 | 1 | -0.18 | -0.56 | -0.01 | 0.03
STARD5 | 1 | -0.3 | -0.77 | -0.06 | -0.06
SETD7 | 1 | -0.45 | -0.42 | -0.74 | -0.18
TRPC1 | 1 | -0.05 | -0.05 | 0.25 | -0.35
NSRP1 | 1 | 0.24 | 0.43 | -0.13 | 0.41
ASB5 | 1 | 0.93 | 0.96 | 0.83 | 0.99
ALDH18A1 | 1 | -0.47 | -0.27 | -0.41 | -0.73
FASLG | 1 | -0.3 | -0.05 | -0.56 | -0.29
SLC44A1 | 1 | -1 | -1 | -1.33 | -0.67
PRAMEF10 | 1 | 1.49 | 1.54 | 1.59 | 1.35
MIDN | 1 | -1.19 | -1.41 | -0.79 | -1.38
ADCYAP1R1 | 1 | 0.88 | 0.68 | 0.78 | 1.18
PNMA2 | 1 | 0.83 | 0.97 | 0.98 | 0.55
ARHGAP17 | 1 | -0.96 | -1.14 | -1.12 | -0.61
MTERF1 | 1 | 0.03 | -0.07 | -0.05 | 0.21
KDF1 | 1 | -0.51 | -0.75 | -0.49 | -0.3
NOTO | 1 | 4.44 (active) | 3.93 | 4.6 | 4.77
IGF2R | 1 | 0.45 | 0.54 | 0.73 | 0.09
USP13 | 1 | 0.35 | 0.47 | 0.34 | 0.25
YJEFN3 | 1 | 0.61 | 0.43 | 0.66 | 0.74
LINC02092 | 1 | 0.89 | 0.99 | 1.14 | 0.54
LOX | 1 | -0.1 | -0.23 | 0.12 | -0.18
TLK1 | 1 | 1.37 | 1.41 | 1.37 | 1.32
LY6G6D | 1 | -0.93 | -1.06 | -1.29 | -0.43
FHL1 | 1 | -1.34 | -1.38 | -1.32 | -1.31
PPP1R3F | 1 | -1.52 | -1.49 | -1.7 | -1.38
NMRK2 | 1 | 1.61 | 1.91 | 1.53 | 1.39
NOL6 | 1 | -2.32 | -2.53 | -2.18 | -2.24
SORCS2 | 1 | 0.42 | 0.33 | 0.45 | 0.47
KRTAP12-4 | 1 | 0.54 | 0.85 | 0.43 | 0.33
MTHFR | 1 | -0.15 | -0.39 | -0.18 | 0.13
VPS54 | 1 | -0.9 | -0.55 | -1.33 | -0.81
KCNJ6 | 1 | -0.25 | -0.36 | -0.24 | -0.13

9 entries already listed, arranged by “mean z-score”, descending.
Target gene | reagent | mean z-score | z-score, replicate A | z-score, replicate B | z-score, replicate C
NOTO | 1 | 4.44 (active) | 3.93 | 4.6 | 4.77
ADCYAP1R1 | 1 | 0.88 | 0.68 | 0.78 | 1.18
PNMA2 | 1 | 0.83 | 0.97 | 0.98 | 0.55
YJEFN3 | 1 | 0.61 | 0.43 | 0.66 | 0.74
IGF2R | 1 | 0.45 | 0.54 | 0.73 | 0.09
USP13 | 1 | 0.35 | 0.47 | 0.34 | 0.25
MTERF1 | 1 | 0.03 | -0.07 | -0.05 | 0.21
KDF1 | 1 | -0.51 | -0.75 | -0.49 | -0.3
ARHGAP17 | 1 | -0.96 | -1.14 | -1.12 | -0.61
